Measured values from several laboratories, pooled; numbers as filed in NIAID ChemDB.

All rows: toxicity to cultured cells; cells: 1A2; measure: CC50

CCn: concentration that lowers growth or viability of the cells by n%. Lines come from different laboratories, so protocols vary.

SMILES,read by,result
O=C1c2c(O)cc(O)cc2O[C@H](c2ccc(O)cc2)[C@H]1c1c(O)cc(O)c2c(=O)cc(-c3ccc(O)c(O)c3)oc12,XTT / absorbance,96.27 µM
COC(=O)/C(C)=C/C=C/[C@@H](C)C1CC[C@@]2(C)[C@@H]3CC[C@H]4C(C)(C)C(=O)CC[C@]4(C)C3=CC[C@]12C,XTT / absorbance,<7.79 µM
CC(C)=CC[C@H]1C[C@@]2(C[C@H]3CCC(C)(C)C=C3C)C(=O)[C@](C(=O)c3ccccc3)(C(=O)C3=C2OC(C)(C)C=C3)C1(C)C,XTT / absorbance,>220 µM
CC1(C)CC[C@]2(C(=O)O)CC[C@]3(C)C(=CCC4[C@@]5(C)CC[C@H](O)C(C)(C)[C@@H]5CC[C@]43C)C2[C@@H]1O,XTT,254 µM
CC(C)=CC[C@H]1C[C@@]2(C[C@H]3CCC(C)(C)C=C3C)C(=O)[C@](C(=O)c3ccccc3)(C(=O)C3=C2OC(C)(C)CC3)C1(C)C,XTT / absorbance,>219 µM
COC(=O)/C(C)=C/C=C/[C@@H](C)[C@H]1CC[C@@]2(C)C3CC[C@H]4C(C)(C)C(=O)CC[C@]4(C)[C@@]3(O)CC[C@]12C,XTT / absorbance,159 µM
CC1OC(OC2C(Oc3cc(O)c4c(=O)c(O)c(-c5ccc(O)cc5)oc4c3)OC(CO)C(O)C2O)C(O)C(O)C1O,XTT,>216 µM
CC(C)=CCC[C@@H](C)[C@@H]1CC[C@]2(C)C3=C(CC[C@@]12C)[C@@]1(C)CC[C@H](O)C(C)(C)[C@@H]1CC3,XTT / absorbance,246 µM
COc1cc(-c2cc(O)c(OC)c(OC)c2)ccc1O,XTT / absorbance,107 µM
CC1OC(OC2C(Oc3cc(O)c4c(=O)c(O)c(-c5ccc(O)c(O)c5)oc4c3)OC(CO)C(O)C2O)C(O)C(O)C1O,XTT,>210 µM
O=c1c2cc(O)c(O)cc2oc2cc(O)cc(O)c12,XTT / absorbance,59.72 µM
C/C(=C\C=C\[C@@H](C)C1CC[C@@]2(C)[C@@H]3CC[C@H]4C(C)(C)C(=O)CC[C@]4(C)[C@@]3(O)CC[C@]12C)C(=O)O,XTT / absorbance,42.73 µM
CC(C)(O)[C@H]1Cc2c(O)cc(-c3ccccc3)cc2O1,XTT / absorbance,152 µM
CC(=O)O[C@H]1CC[C@]2(C)C3CC=C4C5[C@](C(=O)O)(CC[C@@H](C)[C@@]5(C)O)CC[C@@]4(C)[C@]3(C)CC[C@H]2C1(C)C,XTT,85.5 µM

Repeating the first 2 entries:

{"SMILES": "O=C1c2c(O)cc(O)cc2O[C@H](c2ccc(O)cc2)[C@H]1c1c(O)cc(O)c2c(=O)cc(-c3ccc(O)c(O)c3)oc12", "read by": "XTT / absorbance", "result": "96.27 µM"}
{"SMILES": "COC(=O)/C(C)=C/C=C/[C@@H](C)C1CC[C@@]2(C)[C@@H]3CC[C@H]4C(C)(C)C(=O)CC[C@]4(C)C3=CC[C@]12C", "read by": "XTT / absorbance", "result": "<7.79 µM"}